# Share of PSTVd stem 3 variants by leaf site

Data from the supplement of Wu et al. 2024, doi:10.1371/journal.ppat.1012142.

Region: stem 3 of PSTVd (intermediate strain), upper and lower strand joined, each 5' to 3', the first 8 letters being the upper strand. Wild type: GUGGUUCCGGAACCGC. Varied positions (N): GUGGUUCCGNANNCNN.

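A pool of all variants was put on leaves of three Nicotiana benthamiana plants. Progeny were sequenced from the inoculated region (day 5), the margin of the inoculated leaf (day 10) and systemic leaves (day 12).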

Values are reads per thousand in the sample; higher means more abundant, 0 means not found. Each value is the mean of three plants. "Pool" is the share in the plasmid pool used as inoculum, on the same scale. The inoculated region was read from the minus strand, the other sites from the plus strand. The authors trace changes outside the varied positions to PCR and sequencing errors or to mutation in the plant; presence does not show that a variant is infectious alone. For reference, wild type rose from 17.3 per thousand in the pool to 330, 345, 235 (inoculated region), 794, 766, 816 (leaf margin) and 830, 792, 869 (systemic leaves). Samples held 27,691 to 54,225 reads, so the smallest values rest on one or two reads.

sequence	pool	inoculated region	leaf margin	systemic leaves
GUGGUUCCGAAGGCGA	0.831	0.678	0.0321	0
AUGGUUCCGAAGUCCU	0.0154	0	0.0106	0
GUGGUUCCGUAUGCGC	1.35	0.653	0.0212	0.0249
GUGGUUCCGUAAGCCC	1.00	0.351	0.178	0
GUGGUUCCGAAGACCA	1.02	0.768	0.401	0
GUGGUUCCGGAAACCG	0.631	0.283	0.00944	0
GUGGUUCCGUACCCUC	0.893	0.386	0.0120	0
GUGGUUCCGGAUUCUA	0.939	0.306	0.0106	0
GUGGUUCCGGAUUCGG	0.631	0.356	0	0
GUGGUUCCGCACCCAA	0.723	0.282	0	0
GUGGUUCCGAACACGA	1.05	0.362	0	0
GUGGUUCCGCAACCGU	0.862	0.261	0	0
GUGGUUCCGCAAACAA	0.677	0.285	0.0120	0
GUGGUUCCGCAGCCAA	0.677	0.803	0.202	0
GUGGUUCCGUAUCCGU	0.831	0.288	0.0226	0
GUGGUUCCGCAGGCGU	1.12	0.685	0.00944	0
GUGGUUCCGGAAACAG	0.862	0.387	0	0
GUGGUUCCGUAUGCUU	1.57	0.808	0.106	0.0186
GUGGUUCCGAAUUCUA	2.03	1.45	0.0106	0.0496
GUUGUUCCGGAUACCC	0.0154	0	0	0
GUGGGUCCGAAAACGA	0.0154	0	0	0
GUGGUUCCGCAGCCAG	0.631	0.748	0.106	0
GUGGUUCCGGAAGCCU	1.02	0.280	0.0106	0
GUGGUUCCGUAACCAG	0.970	0.251	0.0335	0
GUGGUUCCGGAUUCGA	0.877	0.306	0	0
GUGGUUCCGCAGACUA	0.923	0.270	0.0200	0
GUGGUUCCGAAGCCCU	0.769	0.829	0.437	0
GUGGUUCAGAAGUCUC	0.0154	0.00888	0	0
GUGGUUCCGCAUGCAA	0.800	0.356	0.0241	0
GUGGUUCCGGAAACAA	0.939	0.360	0.0226	0
GUGGUUCCGCAUUCCA	0.769	0.344	0.0212	0
GUGGUUCCGGACCCAA	0.708	0.337	0.0106	0
GUGGUUCCGCAGCCUA	0.769	0.355	0.0106	0
GUGGUUCCGAAUGCAC	0.708	1.34	0.0937	0
GUGGUUCCGGACACCG	0.908	0.226	0	0
GUGGUUCCGUACGCUC	1.12	0.303	0	0
GUGGUUCCGCAUACCU	0.985	0.274	0	0
GUGGUUCCGUAGCCCC	0.970	0.367	0.0120	0
GUGGUUCCGUACUCCA	0.846	0.274	0.0120	0
GUGGUUCCGAACUCGA	0.954	0.905	0	0
GUGGUUCCGAAUUCCU	0.631	0.738	0.425	0
GUGGUUCCGGAGCCAA	0.723	1.36	0.334	0
GUGGUUCCGGAACCAU	1.00	0.749	0.498	0
GUGGUUCCGCAUCCAC	0.923	0.357	0	0
GUGGUUCCGAAGGCGG	1.83	0.930	0	0.0870
GUGGUUCCGAAUGCCG	1.03	0.519	0.00944	0.0124
GUGGUUCCGUAGUCGC	0.970	0.665	0.555	0
GUGGUUCCGGAUACCG	0.739	0.333	0	0
GUGGUUCCGAACUCUC	0.831	1.11	0.0106	0
AUGGUUCCGAAAUCCA	0.0154	0	0	0
GUGGUUCCGAAGCCGA	0.970	0.787	0.493	0
GUGGUUCCGGACGCAC	0.862	0.442	0.0241	0
GUGGUUCCGUAGUCCG	0.831	0.796	0	0
GUGGUUCCGAAUCCGU	0.723	0.691	0.190	0.00615
GUGGUUCCGUAGACGC	0.816	0.231	0.0120	0
GUGGUUCCGAAUUCAA	0.831	0.918	0.655	0
GUGGUUCCGCACACCA	0.754	0.310	0.00944	0

The first 6 entries again:

For GUGGUUCCGAAGGCGA (pool 0.831) the result was inoculated region 0.678; leaf margin 0.0321; systemic leaves 0.
For AUGGUUCCGAAGUCCU (pool 0.0154) the result was inoculated region 0; leaf margin 0.0106; systemic leaves 0.
For GUGGUUCCGUAUGCGC (pool 1.35) the result was inoculated region 0.653; leaf margin 0.0212; systemic leaves 0.0249.
For GUGGUUCCGUAAGCCC (pool 1.00) the result was inoculated region 0.351; leaf margin 0.178; systemic leaves 0.
For GUGGUUCCGAAGACCA (pool 1.02) the result was inoculated region 0.768; leaf margin 0.401; systemic leaves 0.
For GUGGUUCCGGAAACCG (pool 0.631) the result was inoculated region 0.283; leaf margin 0.00944; systemic leaves 0.